Results: PMC10764318

Target: SARS-CoV-2 RBD (331-527) (SARS-CoV-2) (UniProt P0DTC2)
Experiment: BLI

Row | Substance | EC50 [µg/mL]
1 | WRAIR-5001 (from UniProt P01857) | > 100
2 | WRAIR-5004 (from UniProt P01857) | > 100
3 | WRAIR-5005 (from UniProt P01857) | 2.75
4 | WRAIR-5011 (from UniProt P01857) | > 100
5 | WRAIR-5020 (from UniProt P01857) | 4.29
6 | WRAIR-5021 (from UniProt P01857) | 2.44
